Reference: PubChem BioAssay AID588742 (Southern Research Specialized Biocontainment Screening …, 2011)
Only a part is listed here, and it is no random draw. Potency and affinity values are given separately. The source made the active and inactive calls. The rule behind the calls is not given here.

test: Vero cell cytotoxicity, cytotoxicity control for flavivirus capping enzyme inhibitors (AID 588742); conditions: Vero cells viability, cytotoxicity counter-screen; at 40 µM (top of the series)

Row | SMILES | viability
1 | O=C(O)c1cccc(Nc2c([N+](=O)[O-])cc([N+](=O)[O-])cc2[N+](=O)[O-])c1 | inactive: 110%
